Pooled drug test results. Numbers come from NIAID ChemDB, via PubChem.

Common to all: tests in culture; species: Rhinovirus; measure: inhibition

Lines come from different laboratories, so protocols vary. Percent inhibition refers to the dose given; in toxicity tests it is the harm to the cells. a–b is a range or a potency band. An empty or dashed field is not shown.

O=C(O)Cc1csc(/N=C2\SC[C@@H]3Cc4ccccc4CN23)n1 ; method: cytopathic effect ; cells: MRC-5 ; tested at: 10 µg/mL ; strain: Serotype 14 ; result: 80–100%
Cc1cc(CCCCCCCOc2ccc(C3=NCCO3)cc2)on1 ; tested at: 3.2 µg/mL ; strain: 100 serotypes ; result: 71%
CN(C)c1nc(C(F)(F)F)nc2c1ncn2Cc1ccccc1 ; method: plaque count ; cells: M-HELA ; tested at: 8 µM ; strain: Serotype 2 ; result: 33%
Cc1cccc(C2=CCN(c3ccc(Br)nn3)CC2)c1 ; tested at: 1.4 µg/mL ; strain: 100 serotypes ; result: 71%
Cc1cc(-c2ccc(N=Nc3c(N)c(S(=O)(=O)O)cc4cc(S(=O)(=O)O)ccc34)c(C)c2)ccc1N=Nc1c(N)ccc2cc(S(=O)(=O)O)ccc12 ; method: cytopathic effect ; cells: Human embryonic lung cells ; tested at: 5 µg/mL ; result: 0%
CN(C)c1nc(C(F)(F)F)nc2c1ncn2Cc1cccc(F)c1 ; method: plaque count ; cells: M-HELA ; tested at: 8 µM ; strain: Serotype 8 ; result: 45%
N#Cc1cc([N+](=O)[O-])ccc1Oc1ccc(Cl)c(Cl)c1 ; cells: VERO ; tested at: 0.097 µg/mL ; strain: TYPE 1A ; result: 20%
O=C(Nc1cc(S(=O)(=O)O)cc2cc(S(=O)(=O)O)cc(O)c12)c1ccccc1 ; method: cytopathic effect ; cells: Human amnion AV3 cells ; tested at: 50 µg/mL ; result: 40%
CN(C)c1nc(C(F)(F)F)nc2c1ncn2Cc1ccc(F)cc1 ; method: plaque count ; cells: M-HELA ; tested at: 8 µM ; strain: Serotype 13 ; result: 42%
FC(F)(F)c1cccc(C2CCN(c3ccc(Cl)nn3)C2)c1 ; tested at: 17 µg/mL ; strain: 100 serotypes ; result: 71%
CN(C)c1nc(C(F)(F)F)nc2c1ncn2Cc1ccc([N+](=O)[O-])cc1 ; method: plaque count ; cells: M-HELA ; tested at: 8 µM ; strain: Serotype 21 ; result: 28%
O=C(Nc1c(S(=O)(=O)[O-])cc2cc(S(=O)(=O)[O-])cc(O)c2c1O)c1ccccc1 ; method: cytopathic effect ; cells: Human amnion AV3 cells ; tested at: 5 µg/mL ; result: 5%
CCOC(=O)c1csc(N2CCN(Cc3cc(C)ccc3C)CC2)n1 ; tested at: 0.125 µg/mL ; strain: 17 serotypes ; result: 18%
O=S(=O)([O-])c1ccc2c(S(=O)(=O)[O-])cc(S(=O)(=O)[O-])cc2c1 ; method: cytopathic effect ; cells: Human embryonic lung cells ; tested at: 10 µg/mL ; result: 5%
Cc1cccc(N2CCN(c3ccc(Br)nn3)CC2)c1 ; tested at: 0.024 µg/mL ; strain: 100 serotypes ; result: 18%
O=S(=O)([O-])c1cccc(O)c1 ; method: cytopathic effect ; cells: Human embryonic lung cells ; tested at: 5 µg/mL ; result: 0%
Cc1ccc(N2CCC(c3cccc(C(F)(F)F)c3)C2)nn1 ; tested at: 0.25 µg/mL ; strain: 100 serotypes ; result: 53%
CC(C)Oc1ccc(Cn2cnc3c(N(C)C)nc(C(F)(F)F)nc32)cc1 ; method: plaque count ; cells: M-HELA ; tested at: 8 µM ; strain: Serotype 15 ; result: 40%

The first 2 rows once more:

compound	method	cells	tested at	strain	result
O=C(O)Cc1csc(/N=C2\SC[C@@H]3Cc4ccccc4CN23)n1	cytopathic effect	MRC-5	10 µg/mL	Serotype 14	80–100%
Cc1cc(CCCCCCCOc2ccc(C3=NCCO3)cc2)on1	-	-	3.2 µg/mL	100 serotypes	71%